From paper PMC8224886
The exact form of at least one protein or probe is not confirmed. Results from cells or extracts need not show a direct contact.

Sequences of proteins named here, by UniProt entry; tags and fusion partners are left off.
UniProt P40763, whole entry: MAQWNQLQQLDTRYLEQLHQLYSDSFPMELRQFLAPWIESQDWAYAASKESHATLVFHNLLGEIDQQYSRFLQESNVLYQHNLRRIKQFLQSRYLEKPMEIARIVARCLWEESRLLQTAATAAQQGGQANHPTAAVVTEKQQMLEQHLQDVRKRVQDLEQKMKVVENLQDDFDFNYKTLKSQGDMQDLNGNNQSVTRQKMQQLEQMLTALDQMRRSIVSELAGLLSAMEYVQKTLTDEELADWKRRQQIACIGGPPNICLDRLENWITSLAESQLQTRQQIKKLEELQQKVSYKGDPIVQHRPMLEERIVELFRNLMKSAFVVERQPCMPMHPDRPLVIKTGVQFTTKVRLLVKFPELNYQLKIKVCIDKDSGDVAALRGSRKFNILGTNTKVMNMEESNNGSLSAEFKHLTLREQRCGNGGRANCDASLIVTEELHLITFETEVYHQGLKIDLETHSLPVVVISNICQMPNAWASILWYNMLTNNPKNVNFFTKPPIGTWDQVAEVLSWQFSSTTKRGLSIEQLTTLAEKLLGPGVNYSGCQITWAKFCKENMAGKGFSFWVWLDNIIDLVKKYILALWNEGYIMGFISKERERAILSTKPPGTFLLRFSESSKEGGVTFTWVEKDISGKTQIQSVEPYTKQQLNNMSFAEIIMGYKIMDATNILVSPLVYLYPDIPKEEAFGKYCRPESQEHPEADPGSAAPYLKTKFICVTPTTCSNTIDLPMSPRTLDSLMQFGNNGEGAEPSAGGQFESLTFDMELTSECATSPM

Tests used:
[1] = target: STAT3-mCherry (WT, OSM-activated) (UniProt P40763); assay: EMSA; settings: protein in a lysate after overexpression, protein details: mCherry
[2] = target: endogenous STAT3 (OSM-activated) (UniProt P40763); assay: EMSA; settings: protein in an extract

Measured: binding result

AGCTTCATTTCCCGTAAATCCCTA (double strand) [m67 probe]
binds: [1] | [1]; label: digoxigenin | [2] | [2]; label: digoxigenin
